{"sequences": {"note": "The chains behind the UniProt entries cited, without tags or fusion partners. Where a name states a change or a piece, a line headed by the entry shows the natural chain unless it says otherwise.", "UniProt P10242": "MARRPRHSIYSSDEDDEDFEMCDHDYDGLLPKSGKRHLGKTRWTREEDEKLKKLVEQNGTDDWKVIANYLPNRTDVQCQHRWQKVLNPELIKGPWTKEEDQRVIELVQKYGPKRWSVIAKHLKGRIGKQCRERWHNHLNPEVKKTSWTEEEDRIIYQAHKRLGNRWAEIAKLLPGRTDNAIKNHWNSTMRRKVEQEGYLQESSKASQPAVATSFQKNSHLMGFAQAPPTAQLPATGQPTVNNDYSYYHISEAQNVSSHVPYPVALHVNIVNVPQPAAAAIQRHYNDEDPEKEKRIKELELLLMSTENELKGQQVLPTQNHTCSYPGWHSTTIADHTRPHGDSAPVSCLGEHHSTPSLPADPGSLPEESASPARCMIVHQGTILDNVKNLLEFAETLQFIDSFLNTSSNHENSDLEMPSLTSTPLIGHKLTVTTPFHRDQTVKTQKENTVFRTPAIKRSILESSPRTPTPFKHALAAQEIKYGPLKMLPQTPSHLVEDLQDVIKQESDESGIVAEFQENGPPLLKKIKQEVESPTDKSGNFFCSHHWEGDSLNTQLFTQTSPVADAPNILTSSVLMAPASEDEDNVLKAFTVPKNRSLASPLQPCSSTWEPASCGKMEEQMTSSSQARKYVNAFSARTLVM"}, "source": "paper PMC2647524", "target": "c-Myb (UniProt P10242)", "experiment": "EMSA supershift", "conditions": "anti-c-Myb antibody supershifts, PC10 antibody does not, specific by competition with 100-fold unlabeled probe; protein in an extract", "note": "Construct, isoform or probe ends are uncertain for at least one entry. Where cells or extracts were used, other partners may take part.", "data": [{"sequence": "TCGAGAAAGGTCAACTGTCTCACACAAAC / TCGAGTTTGTGTGAGACAGTTGACCTTTC [HTLV-4 LTR c-Myb site probe]", "values": [{"measurement": "binding result", "result": "binds"}]}]}
